A mixed list of measured activities; the numbers were collected in NIAID ChemDB.

Shared fields: growth or infection tests; species: Mycobacterium tuberculosis

ECn is the concentration giving n% inhibition of infection, replication or growth. An empty or dashed field is not shown. a–b is a range or a potency band. MIC bound comes from a single tested concentration. Conditions beyond the fields shown may differ between rows. Inhibition is in % at the dose shown (toxicity tests: loss of growth or viability).

SMILES	tested at	strain	changes	endpoint	cells	method	setting	result
C[C@@H]1O[C@@H]1P(=O)(O)O		H37Rv		MIC bound		BACTEC		>12.5 µg/mL
CC1CCCCN1C(=S)SCN1C(=O)c2ccccc2S1(=O)=O	6.25 µg/mL	H37Rv		inhibition				99%
CC(=O)Nc1ccc(C(=O)CCl)c(Cl)c1	12.5 µg/mL	H37Rv		inhibition		BACTEC		65%
Fc1ccc(C2Cc3nc4ccc(Cl)cc4c(-c4ccccc4)c3S2)cc1		MDR		MIC		agar		3.98 µM
CC(=O)c1cc([N+](=O)[O-])c(N2CCC(C)CC2)s1		ss18b		MIC		resazurin		>100 µg/mL
Cc1ccc(NNC(=O)C(=O)OC2C(=O)OCC2O)cc1		H37Rv		MIC bound		BACTEC		>12.5 µg/mL
CCNc1ccc(C(N)=S)cc1				MIC				425 µM
CCc1nc2cc(Cl)c(C)cn2c1C(=O)NCc1ccc(N2CCN(S(=O)(=O)C(F)(F)F)C=N2)c(F)c1				EC50		fluorescence		0.0055 µM
Cn1c(-c2ccc(/C=N/Nc3ccnc(N/N=C/c4ccc(-c5c[n+]6ccccc6n5C)cc4)n3)cc2)c[n+]2ccccc12.[Br-].[Br-]		H37Rv		MIC bound		BACTEC		>12.5 µg/mL
O=C(Nc1ccc(F)cc1)c1cc([N+](=O)[O-])cc([N+](=O)[O-])c1		H37Rv (ATCC 27294)		MIC		broth dilution / turbidity / visual reading		1.63 µM
COc1ccc(-c2nc(NC3CCCCC3)[nH]c(=O)c2C#N)cc1		H37Ra		MIC				>50 µg/mL
Clc1ccc2nc3c(c(-c4ccccc4)c2c1)SC(c1ccccc1)C3		H37Rv		MIC		agar		16.71 µM
COC1=C[C@@H](C)[C@@H]2C[C@H]3OC(=O)C[C@H]4C(C)=C(OC)C(=O)[C@H]([C@@]2(C)C1=O)[C@@]34C	12.5 µg/mL	H37Rv		inhibition				7%
CN(C)c1ccc(-c2nc(NC3CCCCC3)[nH]c(=O)c2C#N)cc1		H37Ra		MIC				>50 µg/mL
O=C(CCC(F)(F)F)N1CC(c2ccc(Cl)cc2)C1		H37Rv		EC50	THP-1	fluorescence		0.05–0.25 µM
CN(C)c1ccc(C(N)=S)cc1				MIC				350 µM
COC1=C[C@@H](C)[C@@H]2C[C@H]3OC(O)C[C@H]4[C@](C)(O)[C@H](OC)[C@@H](OC(C)=O)[C@H]([C@@]2(C)C1=O)[C@@]34C		H37Rv		EC50				>12.5 µg/mL
N#Cc1c(-c2ccc(F)cc2)nc(NCCCN2CCOCC2)[nH]c1=O		H37Ra		MIC				>50 µg/mL
O=C1c2ccccc2S(=O)(=O)N1CSC(=S)N1CCCC1		H37Rv		MIC				0.78 µg/mL
COC(=O)[C@]12OC[C@]34[C@H]([C@@H](O)[C@H]1O)[C@@]1(C)CC(=O)C(O)=C(C)[C@@H]1C[C@H]3OC(=O)[C@H](OC(=O)/C=C(\C)C(C)C)[C@@H]24		H37Rv		EC50				>12.5 µg/mL
CCCCCCCCNc1nc(-c2ccc(F)cc2)c(C#N)c(=O)[nH]1		H37Ra		MIC				>50 µg/mL
Cc1ccc(NCCN(C)C)c2c(=O)c3cc(O)ccc3oc12		INH-r		MIC				12.5 µg/mL
CCC(C)Nc1ccc(C(N)=S)cc1				MIC				425 µM
O=C(CCCC(F)(F)F)N1CC(c2ccc(F)cc2)C1		H37Rv		EC50	THP-1	fluorescence		0.05–0.25 µM
Cc1[nH]nc(C(=O)NO)c1N	12.5 µg/mL	H37Rv		inhibition		BACTEC		14%
CO[C@H]1/C=C/O[C@@]2(C)Oc3c(C)c(O)c4c(O)c(c5c(c4c3C2=O)NC2(CCN(CC(C)C)CC2)N=5)=NC(=O)/C(C)=C\C=C\[C@H](C)[C@H](O)[C@@H](C)[C@@H](O)[C@@H](C)[C@H](OC(C)=O)[C@@H]1C		Strain 4 (STR-resistant)		MIC				0.006 µg/mL
O=[N+]([O-])c1cccc(C2Cc3nc4ccc(Cl)cc4c(-c4ccccc4)c3S2)c1		MDR		MIC		agar		0.95 µM
N[C@H]1CCN(c2nc3c(cc2F)c(=O)c(C(=O)O)cn3C2CC2)C1		H37Rv		EC50	Macrophages		inside macrophages	<1 µg/mL
CN1CCN(c2c(F)cc3c(=O)c(C(=O)O)cn(CCF)c3c2F)CC1		10 strains		MIC				2 µg/mL
CCc1nc2sc(C)cn2c1C(=O)NCc1ccc(N2CCN(S(=O)(=O)C(F)(F)F)C=N2)cc1				EC50		fluorescence		0.0032 µM
CO[C@H]1/C=C/O[C@@]2(C)Oc3c(C)c(O)c4c(O)c(c5c(c4c3C2=O)NC2(CCN(CC(C)C)CC2)N=5)=NC(=O)/C(C)=C\C=C\[C@H](C)[C@H](O)[C@@H](C)[C@@H](O)[C@@H](C)[C@H](OC(C)=O)[C@@H]1C		Erdman		MIC				0.015 µg/mL
CCc1nc2ncc(Cl)cn2c1C(=O)NCc1ccc(N2CCN(S(=O)(=O)CC(C)C)C=N2)cc1				EC50		fluorescence		0.013 µM
CC(=O)O[C@@H]1[C@H](C)[C@@H]2CC(=O)O[C@@H]3C[C@H]4[C@H](C)C[C@H](O)C(=O)[C@]4(C)[C@@H]([C@@H]1O)[C@@]32C	12.5 µg/mL	H37Rv		inhibition				19%
Cl.NC1=NC(c2ccccc2)C2=C(N1)C(=O)N(Cc1ccccc1)C2		H37Rv		MIC		BACTEC		≥12.8 µg/mL
CC1CCN(C(=S)SCN2C(=O)c3ccccc3S2(=O)=O)CC1		H37Rv		MIC				0.78 µg/mL
COc1ccc2nc3cc(Cl)ccc3c(Nc3ccc(C(C)=O)cc3)c2c1		H37Rv		EC50				<6.25 µg/mL
NC(N)=NC[C@H]1C[C@@H](C(=O)O)C[C@@H]1N=C(N)N		TMC 124 (kurono)		MIC				1.56 µg/mL
CC1COc2c(N3CCN(C)CC3)c(F)cc3c(=O)c(C(=O)O)cn1c23		SMI 20		MIC		BACTEC		0.5 µg/mL
CC1COc2c(N3CCN(C)CC3)c(F)cc3c(=O)c(C(=O)O)cn1c23		10 strains		MIC				1 µg/mL
CCCC(C)Nc1ccc(C(N)=S)cc1				MIC				150 µM
O=C(NCCc1ccccc1)c1cc([N+](=O)[O-])cc([N+](=O)[O-])c1		RifR	Rifampicin-resistant	MIC		broth dilution / turbidity / visual reading		1.59 µM
CC(=O)NC1=C(Cl)C(=O)c2ccccc2C1=O	12.5 µg/mL	H37Rv		inhibition		BACTEC		98%
Cc1ccc(-c2nc(NCc3ccccc3)[nH]c(=O)c2C#N)cc1		H37Ra		MIC				>50 µg/mL
COc1ccc2nc3ccccc3c(Nc3ccc(S(=O)(=O)NC(C)=O)cc3)c2c1		H37Rv		EC50				>6.25 µg/mL
CC(C)(C)C(=O)N/N=C/c1ccc([N+](=O)[O-])s1	12.5 µg/mL	H37Rv		inhibition		BACTEC		94%
CCn1cc(C(=O)O)c(=O)c2cc(F)c(N3CCNCC3)cc21		10 strains		MIC				2 µg/mL
COc1ccc2nc3cc(Cl)ccc3c(Nc3ccc(/C(N)=N/NC(N)=S)cc3)c2c1		H37Rv		EC50				<6.25 µg/mL
NNC(=O)c1ccncc1		Erdman		MIC				0.03 µg/mL
C=C1c2cccc(O)c2C(O)=C2C(=O)[C@]3(O)C(O)=C(C(N)=O)C(=O)[C@@H](N(C)C)[C@@H]3[C@@H](O)[C@H]12.Cl	12.5 µg/mL	H37Rv		inhibition		BACTEC		83%
CCN(CC)CCCC(C)Nc1nc(-c2ccc(OC)cc2)c(C#N)c(=O)[nH]1		H37Ra		MIC				>50 µg/mL
N#Cc1nc(-c2cccnc2)oc1N		H37Rv		MIC bound		resazurin		>6.25 µg/mL
CC1COc2c(N3CCN(C)CC3)c(F)cc3c(=O)c(C(=O)O)cn1c23		484 (streptomycin isoniazid rifampicin-resistant)		MIC				4 µg/mL
CC(C)CC(NC(=O)C(CO)NC(=O)OCc1ccccc1)C(=O)NC(Cc1ccc(O)cc1)C(=O)NN		H37Rv		MIC bound		BACTEC		>12.5 µg/mL
COc1ccc2nc3cc(Cl)ccc3c(Nc3ccc(S(=O)(=O)N=C(N)N)cc3)c2c1		H37Rv		EC50				<6.25 µg/mL
CCc1nc2ccc(Cl)cn2c1C(=O)NCc1ccc(N2CCN(Cc3nc(C(F)(F)F)cs3)C=N2)cc1				EC50		fluorescence		0.13 µM
O=C(CCC(F)(F)F)N1CC(c2cc(F)c(F)c(F)c2)C1		H37Rv		EC50	THP-1	fluorescence		0.05–0.25 µM
COc1ccc2nc3cc(Cl)ccc3c(Nc3ccc(S(=O)(=O)Nc4cc(C)on4)cc3)c2c1		H37Rv		EC50				<6.25 µg/mL
CC(=O)NNc1nc(C)c(C(=O)C=Cc2ccc(NC(C)=O)cc2)s1		H37Rv		MIC bound		resazurin		>6.25 µg/mL
CO[C@H]1/C=C/O[C@@]2(C)Oc3c(C)c(O)c4c(O)c(c(/C=N/N5CCN(C)CC5)c(O)c4c3C2=O)NC(=O)/C(C)=C\C=C\[C@H](C)[C@H](O)[C@@H](C)[C@@H](O)[C@@H](C)[C@H](OC(C)=O)[C@@H]1C		Erdman		MIC				0.06 µg/mL
CCC1=C(C(=O)NCc2cc(F)c(N3CCN(S(=O)(=O)C(F)(F)F)C=N3)c(F)c2)C2C=C(Cl)C=NC2=N1				EC50		fluorescence		0.005 µM
CC1CCN(c2ccc([N+](=O)[O-])s2)CC1		H37Rv		MIC		resazurin		6.25 µg/mL
COc1ccc2cc(N)c3c(c2c1)OC(=O)CC3		H37Rv		MIC		resazurin / fluorescence		3.125 µg/mL
CC(=O)c1cc([N+](=O)[O-])c(N2CC(C)CC(C)C2)s1		ss18b		MIC		resazurin		>100 µg/mL
Cc1ccc(-c2nc(NCCN3CCOCC3)[nH]c(=O)c2C#N)cc1		H37Ra		MIC				>50 µg/mL
COc1cccc2c1C(=O)c1c(O)c3c(c(O)c1C2=O)C[C@@](O)(C(=O)CSc1ccccn1)C[C@@H]3OC1CC(N)C(O)C(C)O1.Cl		H37Rv		MIC bound		BACTEC		>12.5 µg/mL
CCCCCCCCNc1nc(-c2ccc(OC)cc2)c(C#N)c(=O)[nH]1		H37Ra		MIC				25–50 µg/mL
O=C(NCc1cnc(N2CCN(S(=O)(=O)C(F)(F)F)C=N2)c(F)c1)c1c(C(F)(F)F)nc2ncc(Cl)cn12				EC50		fluorescence		0.501 µM
CCOc1cc(N=Nc2cc(Cl)c(S(=O)(=O)O)cc2Cl)c2cc(S(=O)(=O)O)ccc2c1N=Nc1c(S(=O)(=O)O)cc2cc(NC(=O)c3ccc(N)cc3)ccc2c1O		H37Rv		MIC		BACTEC		≥128 µg/mL
CC(C)c1ccc(C2Cc3nc4ccccc4c(-c4ccccc4)c3S2)cc1		H37Rv		MIC		agar		32.76 µM
C=C(CO)C(=O)OC1CC(=C)C2CC(O)C(C)C2C2OC(=O)C(=C)C12.CO	12.5 µg/mL	H37Rv		inhibition		BACTEC		-11%
Clc1ccc(C2Cc3nc4ccccc4c(-c4ccccc4)c3S2)c(Cl)c1		MDR		MIC		agar		15.3 µM
Cc1cc2c(cc1C)[n+]([O-])c(-c1nc3ccccc3s1)c(N)[n+]2[O-]		H37Rv		MIC		BACTEC		≥12.5 µg/mL
O=[N+]([O-])c1cccc(C2Cc3nc4ccccc4c(-c4ccccc4)c3S2)c1		MDR		MIC		agar		8.14 µM
COc1ccc(-n2c(CCC(=O)O)nc3c2C(=O)c2ccccc2C3=O)cc1	12.5 µg/mL	H37Rv		inhibition		BACTEC		0%
CCN(CC)C(=S)SCN1C(=O)c2ccccc2S1(=O)=O		H37Rv		MIC				1.56 µg/mL
CCCCN(CCCC)CCNc1ccc(NS(=O)(=O)c2ccccc2)c2sc3ccccc3c(=O)c12		H37Rv		MIC		BACTEC		3.13 µg/mL
COc1ccc(-c2cc(=O)c3c(O)c(OC)c(O)c(OC)c3o2)cc1		H37Ra		MIC				100 µg/mL
CC(C)(C)C1=CC(=O)C(C(C)(C)C)=CC1=O		H37Rv		MIC		BACTEC		64 µg/mL
CC(C)COC(=S)SCN1C(=O)c2ccccc2S1(=O)=O	6.25 µg/mL	H37Rv		inhibition				78%

Again, the opening 9 rows:

SMILES,tested at,strain,changes,endpoint,cells,method,setting,result
C[C@@H]1O[C@@H]1P(=O)(O)O,,H37Rv,,MIC bound,,BACTEC,,>12.5 µg/mL
CC1CCCCN1C(=S)SCN1C(=O)c2ccccc2S1(=O)=O,6.25 µg/mL,H37Rv,,inhibition,,,,99%
CC(=O)Nc1ccc(C(=O)CCl)c(Cl)c1,12.5 µg/mL,H37Rv,,inhibition,,BACTEC,,65%
Fc1ccc(C2Cc3nc4ccc(Cl)cc4c(-c4ccccc4)c3S2)cc1,,MDR,,MIC,,agar,,3.98 µM
CC(=O)c1cc([N+](=O)[O-])c(N2CCC(C)CC2)s1,,ss18b,,MIC,,resazurin,,>100 µg/mL
Cc1ccc(NNC(=O)C(=O)OC2C(=O)OCC2O)cc1,,H37Rv,,MIC bound,,BACTEC,,>12.5 µg/mL
CCNc1ccc(C(N)=S)cc1,,,,MIC,,,,425 µM
CCc1nc2cc(Cl)c(C)cn2c1C(=O)NCc1ccc(N2CCN(S(=O)(=O)C(F)(F)F)C=N2)c(F)c1,,,,EC50,,fluorescence,,0.0055 µM
Cn1c(-c2ccc(/C=N/Nc3ccnc(N/N=C/c4ccc(-c5c[n+]6ccccc6n5C)cc4)n3)cc2)c[n+]2ccccc12.[Br-].[Br-],,H37Rv,,MIC bound,,BACTEC,,>12.5 µg/mL